{"sequences": {"note": "Amino acid sequences for entries named in this document (tags omitted). A change or cut given only in a name is not applied to a line headed by its entry.", "UniProt Q13547, whole entry, looked up": "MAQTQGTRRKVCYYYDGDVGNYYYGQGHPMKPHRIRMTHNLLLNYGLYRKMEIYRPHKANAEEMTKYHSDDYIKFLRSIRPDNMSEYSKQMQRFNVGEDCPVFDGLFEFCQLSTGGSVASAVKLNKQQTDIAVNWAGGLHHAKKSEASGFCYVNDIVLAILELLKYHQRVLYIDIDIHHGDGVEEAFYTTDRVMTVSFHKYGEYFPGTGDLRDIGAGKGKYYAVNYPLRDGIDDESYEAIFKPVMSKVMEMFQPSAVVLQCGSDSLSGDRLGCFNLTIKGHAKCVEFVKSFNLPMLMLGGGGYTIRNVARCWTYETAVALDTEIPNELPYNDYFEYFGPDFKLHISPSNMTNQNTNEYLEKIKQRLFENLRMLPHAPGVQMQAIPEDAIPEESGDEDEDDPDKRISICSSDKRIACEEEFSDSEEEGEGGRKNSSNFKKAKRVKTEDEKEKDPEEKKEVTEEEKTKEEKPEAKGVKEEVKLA", "UniProt O15379": "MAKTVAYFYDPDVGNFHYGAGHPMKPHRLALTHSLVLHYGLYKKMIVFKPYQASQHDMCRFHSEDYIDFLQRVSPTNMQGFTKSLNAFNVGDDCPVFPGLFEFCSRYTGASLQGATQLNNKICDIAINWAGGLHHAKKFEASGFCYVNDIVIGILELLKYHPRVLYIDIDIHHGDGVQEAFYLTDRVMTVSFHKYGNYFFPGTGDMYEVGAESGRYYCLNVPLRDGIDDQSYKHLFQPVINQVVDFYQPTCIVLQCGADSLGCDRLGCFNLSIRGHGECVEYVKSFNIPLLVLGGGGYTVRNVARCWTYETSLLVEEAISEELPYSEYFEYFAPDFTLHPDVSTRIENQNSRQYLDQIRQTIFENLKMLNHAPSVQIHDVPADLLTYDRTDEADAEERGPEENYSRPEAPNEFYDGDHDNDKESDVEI", "UniProt Q9UBN7": "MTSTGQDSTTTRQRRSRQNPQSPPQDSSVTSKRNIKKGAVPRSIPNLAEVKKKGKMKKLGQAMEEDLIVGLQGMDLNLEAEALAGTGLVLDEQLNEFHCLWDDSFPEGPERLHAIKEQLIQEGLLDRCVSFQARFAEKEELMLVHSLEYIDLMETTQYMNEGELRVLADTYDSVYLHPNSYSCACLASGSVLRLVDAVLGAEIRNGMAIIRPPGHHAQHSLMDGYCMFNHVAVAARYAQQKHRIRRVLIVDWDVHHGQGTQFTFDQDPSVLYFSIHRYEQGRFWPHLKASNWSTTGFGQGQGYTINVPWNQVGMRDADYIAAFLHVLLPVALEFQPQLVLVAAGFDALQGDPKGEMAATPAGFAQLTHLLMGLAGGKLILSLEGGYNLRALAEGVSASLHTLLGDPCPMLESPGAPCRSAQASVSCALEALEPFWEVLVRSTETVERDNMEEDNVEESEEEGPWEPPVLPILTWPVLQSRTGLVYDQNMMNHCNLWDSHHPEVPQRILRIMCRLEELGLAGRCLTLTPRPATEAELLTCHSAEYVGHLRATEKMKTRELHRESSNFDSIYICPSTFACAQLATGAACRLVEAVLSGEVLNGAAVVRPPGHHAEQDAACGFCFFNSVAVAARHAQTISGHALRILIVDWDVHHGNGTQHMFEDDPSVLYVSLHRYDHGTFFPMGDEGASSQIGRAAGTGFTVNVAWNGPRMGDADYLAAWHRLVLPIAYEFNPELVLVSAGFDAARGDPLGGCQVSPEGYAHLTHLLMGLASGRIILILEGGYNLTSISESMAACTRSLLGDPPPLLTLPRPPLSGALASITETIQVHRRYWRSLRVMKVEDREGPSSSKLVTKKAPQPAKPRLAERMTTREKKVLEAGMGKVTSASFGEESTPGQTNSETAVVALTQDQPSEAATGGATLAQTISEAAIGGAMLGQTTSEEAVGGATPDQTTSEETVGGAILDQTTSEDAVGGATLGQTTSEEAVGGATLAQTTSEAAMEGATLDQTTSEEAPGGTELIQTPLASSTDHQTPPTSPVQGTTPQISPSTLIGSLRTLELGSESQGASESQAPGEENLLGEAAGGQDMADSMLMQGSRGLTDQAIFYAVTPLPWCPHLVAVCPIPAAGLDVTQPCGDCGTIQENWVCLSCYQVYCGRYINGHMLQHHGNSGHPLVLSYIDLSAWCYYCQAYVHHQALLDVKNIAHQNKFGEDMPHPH"}, "source": "paper PMC7191901", "about": "“Hybrid inhibitors of DNA and HDACs remarkably enhance cytotoxicity in leukaemia cells” (Journal of Enzyme Inhibition and Medicinal Chemistry, 2020)", "key": {"H1975 cells": {"tested_on": "H1975 cells", "test": "Cell proliferation (MTS) assay, H1975", "format": "cell-based", "settings": "read-out: GI50, H1975, 72 h"}, "[1]": {"tested_on": "PARP, caspase 3, and caspase 8", "test": "Western blot, apoptotic biomarkers in HL-60 cells", "format": "cell-based, human", "settings": "HL-60, 24 h, indicated concentrations"}, "HL-60 cells [2]": {"tested_on": "HL-60 cells", "test": "Cell cycle distribution by flow cytometry", "format": "cell-based, human", "settings": "for G2/M fraction: 24 h, HL-60"}, "A549 cells": {"tested_on": "A549 cells", "test": "Cell proliferation (MTS) assay, A549", "format": "cell-based", "settings": "read-out: GI50, A549, 72 h"}, "U-937 cells": {"tested_on": "U-937 cells", "test": "Cell proliferation (MTS) assay, U-937", "format": "cell-based, human"}, "[3]": {"tested_on": "Ac-α-tubulin and Ac-histone H3", "test": "Western blot, acetylation of α-tubulin and histone H3 in HL-60 cells", "format": "cell-based, human", "settings": "HL-60, 24 h, indicated concentrations"}, "HDAC1": {"biological_target": "HDAC1 (Homo sapiens, UniProt Q13547)", "test": "Enzymatic HDAC fluorogenic assay, HDAC1", "settings": "read-out: IC50 values, HDAC1; class I"}, "HDAC3": {"biological_target": "HDAC3 (Homo sapiens, UniProt O15379)", "test": "Enzymatic HDAC fluorogenic assay, HDAC3", "settings": "read-out: IC50 values, HDAC3; class I"}, "MCF-7/ADR cells": {"tested_on": "MCF-7/ADR cells", "test": "Cell proliferation (MTS) assay, MCF-7/ADR", "format": "cell-based", "settings": "read-out: GI50, MCF-7/ADR, 72 h"}, "γ-H2AX": {"tested_on": "γ-H2AX", "test": "Western blot, γ-H2AX in HL-60 cells", "settings": "HL-60, 24 h, indicated concentrations"}, "HDAC6": {"biological_target": "HDAC6 (Homo sapiens, UniProt Q9UBN7)", "test": "Enzymatic HDAC fluorogenic assay, HDAC6", "settings": "read-out: IC50 values, HDAC6; class IIb"}, "A2780 cells": {"tested_on": "A2780 cells", "test": "Cell proliferation (MTS) assay, A2780", "format": "cell-based, human", "settings": "read-out: GI50 values, A2780, 3 days (72 h)"}, "U266 cells": {"tested_on": "U266 cells", "test": "Cell proliferation (MTS) assay, U266", "format": "cell-based", "settings": "read-out: GI50, U266, 72 h"}, "MDA-MB-231 cells": {"tested_on": "MDA-MB-231 cells", "test": "Cell proliferation (MTS) assay, MDA-MB-231", "format": "cell-based, human", "settings": "read-out: GI50 values, MDA-MB-231, 3 days (72 h), listed as Chloram-HDi (3)"}, "HL-60 cells [4]": {"tested_on": "HL-60 cells", "test": "Comet assay (DNA damage)", "format": "cell-based, human", "settings": "10 µM, 24 h"}, "[5]": {"tested_on": "primary human peripheral blood mononuclear cells (PBMCs)", "test": "Cytotoxicity on normal PBMCs (MTS)", "settings": "3 days, MTS assay"}, "HL-60 cells [6]": {"tested_on": "HL-60 cells", "test": "Cell proliferation (MTS) assay, HL-60", "format": "cell-based, human"}, "Rad52": {"tested_on": "Rad52", "test": "Western blot, Rad52 in HL-60 cells", "settings": "HL-60, 24 h, indicated concentrations"}, "MCF-7 cells": {"tested_on": "MCF-7 cells", "test": "Cell proliferation (MTS) assay, MCF-7", "format": "cell-based, human"}}, "note": "Read-outs that look alike come from different tables or passages of the source."}
{"smiles": "O=C(CCCc1ccc(N(CCCl)CCCl)cc1)NO", "values": [{"measurement": "GI50", "setting": "H1975 cells", "value": 76.7, "unit": "µM"}, {"measurement": "cleavage of PARP, caspase 3, and caspase 8", "setting": "[1]", "value": "significantly promoted the cleavage of PARP, caspase 3, and caspase 8 in a dose-dependent manner"}, {"measurement": "G2/M fraction", "setting": "HL-60 cells [2]; 0.1 µM, DMSO control 21.8%", "value": 30.8, "unit": "%"}, {"measurement": "G2/M fraction", "setting": "HL-60 cells [2]; 0.5 µM", "value": 52, "unit": "%"}, {"measurement": "G2/M fraction", "setting": "HL-60 cells [2]; 1 µM", "value": 62.4, "unit": "%"}, {"measurement": "cell population at sub G0/G1 phases", "setting": "HL-60 cells [2]; HL-60, 24 h", "value": "increased the cell population at sub G0/G1 phases in a dose-dependent manner"}, {"measurement": "cell population at the G0/G1 phases", "setting": "HL-60 cells [2]; HL-60, 24 h", "value": "reduction of the cell population at the G0/G1 phases in a dose-dependent manner"}, {"measurement": "GI50", "setting": "A549 cells", "value": 65.3, "unit": "µM"}, {"measurement": "GI50", "setting": "U-937 cells; read-out: GI50 values, U-937, 3 days (72 h), MTS assay", "value": 1750, "unit": "nM"}, {"measurement": "IC50", "setting": "U-937 cells; read-out: IC50, U937", "value": 1750, "unit": "nM"}, {"measurement": "acetylation of α-tubulin and histone H3", "setting": "[3]", "value": "dose-dependently increased the acetylation of α-tubulin and histone H3"}, {"measurement": "expression level of α-tubulin", "setting": "[3]", "value": "decreased the expression level of α-tubulin in a dose-dependent manner"}, {"measurement": "IC50", "setting": "HDAC1", "value": 4.5, "unit": "µM"}, {"measurement": "IC50", "setting": "HDAC3", "value": 6.2, "unit": "µM"}, {"measurement": "GI50", "setting": "MCF-7/ADR cells", "value": 62.1, "unit": "µM"}, {"measurement": "expression of γ-H2AX", "setting": "γ-H2AX", "value": "more significantly increased the expression of γ-H2AX than chlorambucil in a dose-dependent manner"}, {"measurement": "IC50", "setting": "HDAC6", "value": 694, "unit": "nM"}, {"measurement": "GI50", "setting": "A2780 cells", "value": 21.2, "unit": "µM"}, {"measurement": "GI50", "setting": "U266 cells", "value": 38.1, "unit": "µM"}, {"measurement": "GI50", "setting": "MDA-MB-231 cells", "value": 95.9, "unit": "µM"}, {"measurement": "% DNA content in the tail", "setting": "HL-60 cells [4]", "value": 25.5, "unit": "%"}, {"measurement": "toxicity to normal human PBMCs", "setting": "[5]; 0.01-10 µM", "value": "not toxic to normal human PBMCs up to 10 µM concentration"}, {"measurement": "IC50", "setting": "[5]; read-out: IC50, normal PBMCs", "value": "> 10", "unit": "µM"}, {"measurement": "GI50", "setting": "HL-60 cells [6]; read-out: GI50 values, HL-60, 3 days (72 h), MTS assay", "value": 1240, "unit": "nM"}, {"measurement": "IC50", "setting": "HL-60 cells [6]; read-out: IC50, HL-60", "value": 1240, "unit": "nM"}, {"measurement": "protein level of Rad52", "setting": "Rad52", "value": "downregulated the protein level of Rad52 in a dose-dependent manner"}, {"measurement": "GI50", "setting": "MCF-7 cells; read-out: GI50 values, MCF-7, 3 days, listed as Chloram-HDi (3)", "value": 245, "unit": "µM"}, {"measurement": "GI50", "setting": "MCF-7 cells; read-out: GI50 values, MCF-7, 3 days, listed as chloram-HDi", "value": 245, "unit": "µM"}]}
